From article PMC9139002, “Naphthoquinone as a New Chemical Scaffold for Leishmanicidal Inhibitors of Leishmania GSK-3” (Biomedicines, 2022)

system: mouse peritoneal macrophages (MPM); test: Cytotoxicity on mouse peritoneal macrophages (MTT reduction); assay type: cell-based; details: IC50 MPM/IC50 axenic amastigotes
Description: Leishmania parasites were collected at late exponential growth phase by centrifugation at 1610× g at 4 °C. Elicited mouse peritoneal macrophages (MPM) were obtained from 8-week-old Balb/c mice through i.p. injection with 1 mL of 10% thioglycolate medium 72 h before extraction. Macrophages were obtained by peritoneal washing (10 mL PBS, 4 °C).
Both activities were assessed by inhibition of MTT (3-(4,5-dimethylthiazol-2-yl)-2,5-diphenyltetrazolium bromide) reduction, as described in [34]. Samples were made in triplicate and assays were repeated at least twice. DMSO content in the medium was adjusted to 0.25% v/v (final concentration), regardless of the final concentration of the drug, and for the control, the untreated parasites. ICx (inhibitory concentration that inhibits parasite growth or enzymatic activity by x%) was calculated using the statistical module of SigmaPlot v11.0 software.

Substance	Selectivity Index (SI)
N-(1,4-Naphthoquinone-2-yl)propionamide [Compound 19]	2.4
N-(1,4-Naphthoquinone-2-yl)acetamide [Compound 18]	3.3
N-(1,4-Naphthoquinone-2-yl) phenylacetamide [Compound 20]	2.3
